Results deposited as PubChem BioAssay AID624099 (ICCB-Longwood, 2012).
Shown is an unselected part of about 21,000 reagents tested. In the full data, 497 (2.4%) are marked active. 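Higher z means weaker E2 silencing; only reporter increases were scored, and knock-downs that hurt cell survival may mask genuine repressor factors.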 Unmarked entries are inactive. Reagents against one gene are numbered here.

Aim: 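Host factors E2 relies on to silence an HPV18 LCR reporter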 (primary screen)
System: human C33A cervical carcinoma cells (HPV-negative) stably expressing BPV1 E2 and an HPV18 LCR luciferase reporter
Reagents: siRNA pool against human genes, 40 nM
Time to read-out: 72 h
Measured: 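HPV18 LCR reporter light per well, converted to plate-wise z-scores that exclude control wells, and averaged over triplicate plates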
Reading the numbers: mean z-score and z-score: higher = stronger reporter signal, weaker E2 silencing
Call rule: 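Hit if mean z-score reaches 2 and two or more of three replicate z-scores also reach 2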

gene,reagent no.,mean z-score,"z-score, replicate A","z-score, replicate B","z-score, replicate C"
ERV3-2,1,-1.81,-1.67,-1.71,-2.04
ZFAND1,1,1.68,1.87,1.42,1.76
SOST,1,-0.41,-0.45,-0.48,-0.29
ITGB1,1,-0.04,0,-0.11,-0.01
MTCL1,1,-0.65,-0.71,-0.78,-0.45
ZNF343,1,1.18,0.87,1.5,1.15
CCR3,1,-0.87,-1.09,-0.76,-0.77
TRIM72,1,-1.09,-0.72,-1.18,-1.36
HSPA6,1,0.21,0.51,0.04,0.09
SPACA6,1,-0.28,0.19,-0.63,-0.4
LINC01106,1,0.44,0.15,0.48,0.7
LINC01128,1,-0.42,-0.23,-0.55,-0.47
MVK,1,-0.2,-0.2,-0.36,-0.04
DLEU2,1,0.16,0.26,0.04,0.17
SPINK6,1,0.39,0.23,0.32,0.62
TRIM39,1,1.11,1.09,0.96,1.28
SYF2,1,-0.72,-0.53,-1.11,-0.52
B2M,1,0.52,0.27,0.74,0.54
SPART,1,0.01,0.2,-0.14,-0.03
APH1A,1,-0.25,-0.65,-0.15,0.06
LRRC36,1,-0.56,-0.6,-0.53,-0.55
PLXNC1,1,-0.38,-0.29,-0.33,-0.53
MYH7B,1,-0.24,-0.01,0.29,-0.99
DCDC2,1,-0.35,-0.09,-0.77,-0.21
OR2C3,1,-0.57,-0.63,-0.59,-0.48
KRTAP21-1,1,0.9,1.34,0.6,0.75
LOC402275 (retired record),1,0.34,0.44,0.42,0.17
STK3,1,1.04,0.86,1.09,1.18
SPACA9,1,0.29,0.61,0.12,0.13

In a second layout: results already given
| gene | reagent no. | mean z-score | z-score, replicate A | z-score, replicate B | z-score, replicate C |
| --- | --- | --- | --- | --- | --- |
| ERV3-2 | 1 | -1.81 | -1.67 | -1.71 | -2.04 |
| ZFAND1 | 1 | 1.68 | 1.87 | 1.42 | 1.76 |
| SOST | 1 | -0.41 | -0.45 | -0.48 | -0.29 |
| ITGB1 | 1 | -0.04 | 0 | -0.11 | -0.01 |
| MTCL1 | 1 | -0.65 | -0.71 | -0.78 | -0.45 |
| ZNF343 | 1 | 1.18 | 0.87 | 1.5 | 1.15 |
| CCR3 | 1 | -0.87 | -1.09 | -0.76 | -0.77 |
| TRIM72 | 1 | -1.09 | -0.72 | -1.18 | -1.36 |

The list goes on.
gene,reagent no.,mean z-score,"z-score, replicate A","z-score, replicate B","z-score, replicate C"
LOC107985476,1,-0.76,-0.88,-0.6,-0.8
KTI12,1,0.36,0.2,0.37,0.52
HFM1,1,0.14,-0.02,0.19,0.26
HFM1,2,-0.23,-0.39,-0.23,-0.06
DVL1,1,0.39,0.19,0.37,0.6
MED18,1,-0.3,-0.28,-0.49,-0.13
LOC389028 (retired record),1,-1.22,-1.44,-1.15,-1.07
NUDT16,1,-1.37,-1.41,-1.36,-1.33
ZFAND3,1,2.1 (active),2.53,2.06,1.7
H2AC14,1,-1.48,-1.21,-1.58,-1.66
SLC13A3,1,0.48,0.24,0.13,1.05
TMEM225,1,0.48,0.2,0.84,0.4
CHP2,1,-0.51,-1.01,-0.47,-0.06
NPB,1,-0.15,-0.04,-0.19,-0.23
STEAP4,1,0.27,0.11,0.52,0.17
ZNF280D,1,-1.27,-1.31,-1.25,-1.25
RPS10P10,1,1.76,1.74,1.98,1.55
STRIP1,1,-0.6,-0.59,-0.86,-0.34
OR5W2,1,-0.05,-0.64,0,0.48
SMIM3,1,0.14,-0.43,0.28,0.56
AFG3L1P,1,0,0.25,-0.08,-0.17
AFG3L1P,2,-0.43,,-0.56,-0.29
SPATA3,1,0.06,0.24,-0.07,0.02
PPP1R2C,1,0.48,0.63,0.54,0.28
BEX4,1,0.29,0.19,0.35,0.34
NXT1,1,-0.99,-1.04,-0.97,-0.94
LINC01097,1,0.11,0.2,-0.03,0.16
RNF41,1,-0.45,-0.3,-0.6,-0.44
